The values below come from patent publication US20230227512A1.

For assay [1], the target named is 201C-433C. Nature of the assay: SPR.
Assay [2] addresses 201C-433C. Put plainly: BLI.
The target in assay [3] is BG505.SOSIP.664.201C-433C HIV-1 Env ectodomain trimer. Nature of the assay: SPR.

In the case of 8ANC195, the Kd with 201C-433C [1] was determined as 14.6 nM.

Consider b12, for which the Kd in the assay with 201C-433C [1] is above 1000 nM; in the assay with 201C-433C [2], above 4000 nM.

Regarding VRC26.09, the dissociation constant Kd with 201C-433C [1] was found to be 11.5 nM; with 201C-433C [2] it was 33.6 nM.

“soluble CD4 (sCD4) (from UniProt P01730 26-208)”: the equilibrium dissociation constant (Kd) in assay [3] was found to be 9.5 nM.

Turning to PGT128, in the assay with 201C-433C [1], the Kd stood at 13.1 nM.
